Laboratory results: PubChem BioAssay AID1259414 (Drosophila RNAi Screening Center, 2018)
Screen: 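Host factors increasing or decreasing Wolbachia levels in cultured fly cells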 (primary screen). Cell system: Drosophila JW18 cells infected with Wolbachia. Reagents: long dsRNA against Drosophila genes, 0.25 µg dsRNA per well of a 384-well plate. Timing: 5 days. Challenge: cells persistently infected with Wolbachia before knock-down; no added drug. Measured: 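Automated imaging of bacterial rRNA staining divided by host cell count, reported as plate-normalised robust z-score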. Scale: Wolbachia per cell robust z: higher = more Wolbachia per host cell than the plate typical. Hit rule: 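Hit when robust z is 1.5 or more, or -1.5 or less, in at least two of three replicates; excludes dsRNAs with several or no targets, genes not expressed in JW18 and well A1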.
The screen tested about 24,000 reagents; below is a random part of those with a known target gene and a result. Over the whole deposit, about 1,210 (5%) are marked active. 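Inactive calls also include excluded dsRNAs with several or no targets, genes unexpressed in JW18, and well A1, regardless of score.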 The numbers tell different reagents against one gene apart. A plus sign joins genes that one reagent is predicted to hit.

{"target":"CG6836","dsRNA no.":1,"Wolbachia per cell robust z, rep 1":0.318,"Wolbachia per cell robust z, rep 2":-0.851,"Wolbachia per cell robust z, rep 3":-0.736,"Outcome":"inactive"}
{"target":"CG6836","dsRNA no.":2,"Wolbachia per cell robust z, rep 1":-1.01,"Wolbachia per cell robust z, rep 2":-1.02,"Wolbachia per cell robust z, rep 3":-1.21,"Outcome":"inactive"}
{"target":"eIF3f1 (eukaryotic translation initiation factor 3 subunit f1)","dsRNA no.":1,"Wolbachia per cell robust z, rep 1":3.1,"Wolbachia per cell robust z, rep 2":2.23,"Wolbachia per cell robust z, rep 3":3.61,"Outcome":"active"}
{"target":"eIF3f1 (eukaryotic translation initiation factor 3 subunit f1)","dsRNA no.":2,"Wolbachia per cell robust z, rep 1":0.467,"Wolbachia per cell robust z, rep 2":1.48,"Wolbachia per cell robust z, rep 3":-0.451,"Outcome":"inactive"}
{"target":"SPARC (Secreted protein, acidic, cysteine-rich)","dsRNA no.":1,"Wolbachia per cell robust z, rep 1":0.288,"Wolbachia per cell robust z, rep 2":0.326,"Wolbachia per cell robust z, rep 3":0.5,"Outcome":"inactive"}
{"target":"SPARC (Secreted protein, acidic, cysteine-rich)","dsRNA no.":2,"Wolbachia per cell robust z, rep 1":-0.683,"Wolbachia per cell robust z, rep 2":0.0651,"Wolbachia per cell robust z, rep 3":0.244,"Outcome":"inactive"}
{"target":"SPARC (Secreted protein, acidic, cysteine-rich)","dsRNA no.":3,"Wolbachia per cell robust z, rep 1":-0.236,"Wolbachia per cell robust z, rep 2":-2.12,"Wolbachia per cell robust z, rep 3":0.0981,"Outcome":"inactive"}
{"target":"Nplp2 (Neuropeptide-like precursor 2)","dsRNA no.":1,"Wolbachia per cell robust z, rep 1":0.0474,"Wolbachia per cell robust z, rep 2":-0.463,"Wolbachia per cell robust z, rep 3":0.496,"Outcome":"inactive"}
{"target":"Prosbeta7 (Proteasome beta7 subunit)","dsRNA no.":1,"Wolbachia per cell robust z, rep 1":1.01,"Wolbachia per cell robust z, rep 2":-0.221,"Wolbachia per cell robust z, rep 3":0.949,"Outcome":"inactive"}
{"target":"CG13437","dsRNA no.":1,"Wolbachia per cell robust z, rep 1":-4.16,"Wolbachia per cell robust z, rep 2":-1.8,"Wolbachia per cell robust z, rep 3":-2.46,"Outcome":"inactive"}
{"target":"MFS10 (Major Facilitator Superfamily Transporter 10)","dsRNA no.":1,"Wolbachia per cell robust z, rep 1":-0.302,"Wolbachia per cell robust z, rep 2":-10.9,"Wolbachia per cell robust z, rep 3":-0.276,"Outcome":"inactive"}
{"target":"MFS10 (Major Facilitator Superfamily Transporter 10)","dsRNA no.":2,"Wolbachia per cell robust z, rep 1":0.589,"Wolbachia per cell robust z, rep 2":-1.03,"Wolbachia per cell robust z, rep 3":0.106,"Outcome":"inactive"}
{"target":"cer (crammer)","dsRNA no.":1,"Wolbachia per cell robust z, rep 1":-0.13,"Wolbachia per cell robust z, rep 2":0.294,"Wolbachia per cell robust z, rep 3":0.668,"Outcome":"inactive"}
{"target":"Prx1 (Peroxiredoxin 1)","dsRNA no.":1,"Wolbachia per cell robust z, rep 1":0.0502,"Wolbachia per cell robust z, rep 2":-0.44,"Wolbachia per cell robust z, rep 3":0.546,"Outcome":"inactive"}
{"target":"Prx1 (Peroxiredoxin 1)","dsRNA no.":2,"Wolbachia per cell robust z, rep 1":-9.81,"Wolbachia per cell robust z, rep 2":-0.0415,"Wolbachia per cell robust z, rep 3":-0.766,"Outcome":"inactive"}
{"target":"PrBP (Prenyl-binding protein)","dsRNA no.":1,"Wolbachia per cell robust z, rep 1":-0.396,"Wolbachia per cell robust z, rep 2":0.506,"Wolbachia per cell robust z, rep 3":1.04,"Outcome":"inactive"}
{"target":"PrBP (Prenyl-binding protein)","dsRNA no.":2,"Wolbachia per cell robust z, rep 1":0.684,"Wolbachia per cell robust z, rep 2":0.554,"Wolbachia per cell robust z, rep 3":1.1,"Outcome":"inactive"}
{"target":"CG31229","dsRNA no.":1,"Wolbachia per cell robust z, rep 1":-0.287,"Wolbachia per cell robust z, rep 2":-0.315,"Wolbachia per cell robust z, rep 3":-0.0303,"Outcome":"inactive"}
{"target":"CG33772","dsRNA no.":1,"Wolbachia per cell robust z, rep 1":0.489,"Wolbachia per cell robust z, rep 2":1.26,"Wolbachia per cell robust z, rep 3":2.11,"Outcome":"inactive"}
{"target":"CG34299","dsRNA no.":1,"Wolbachia per cell robust z, rep 1":-1.11,"Wolbachia per cell robust z, rep 2":0.0169,"Wolbachia per cell robust z, rep 3":0.0451,"Outcome":"inactive"}
{"target":"CG4363","dsRNA no.":1,"Wolbachia per cell robust z, rep 1":-0.661,"Wolbachia per cell robust z, rep 2":0.483,"Wolbachia per cell robust z, rep 3":-0.49,"Outcome":"inactive"}
{"target":"CG34231","dsRNA no.":1,"Wolbachia per cell robust z, rep 1":-3.53,"Wolbachia per cell robust z, rep 2":0.202,"Wolbachia per cell robust z, rep 3":0.244,"Outcome":"inactive"}
{"target":"Drep2 (DNA fragmentation factor-related protein 2)","dsRNA no.":1,"Wolbachia per cell robust z, rep 1":0.172,"Wolbachia per cell robust z, rep 2":1.08,"Wolbachia per cell robust z, rep 3":-1.19,"Outcome":"inactive"}
{"target":"Drep2 (DNA fragmentation factor-related protein 2)","dsRNA no.":2,"Wolbachia per cell robust z, rep 1":-4.42,"Wolbachia per cell robust z, rep 2":-4.28,"Wolbachia per cell robust z, rep 3":-8.25,"Outcome":"inactive"}
{"target":"CG30369","dsRNA no.":1,"Wolbachia per cell robust z, rep 1":0.89,"Wolbachia per cell robust z, rep 2":1.16,"Wolbachia per cell robust z, rep 3":-0.221,"Outcome":"inactive"}
{"target":"CG30369","dsRNA no.":2,"Wolbachia per cell robust z, rep 1":-2.4,"Wolbachia per cell robust z, rep 2":0.181,"Wolbachia per cell robust z, rep 3":0.92,"Outcome":"inactive"}
{"target":"CG10814","dsRNA no.":1,"Wolbachia per cell robust z, rep 1":0.466,"Wolbachia per cell robust z, rep 2":0.766,"Wolbachia per cell robust z, rep 3":-0.274,"Outcome":"inactive"}
{"target":"CG7707","dsRNA no.":1,"Wolbachia per cell robust z, rep 1":0.941,"Wolbachia per cell robust z, rep 2":0.59,"Wolbachia per cell robust z, rep 3":-1.73,"Outcome":"inactive"}
{"target":"CG17781 + CG17780","dsRNA no.":1,"Wolbachia per cell robust z, rep 1":0.464,"Wolbachia per cell robust z, rep 2":1.07,"Wolbachia per cell robust z, rep 3":0.0422,"Outcome":"inactive"}
{"target":"CG14315","dsRNA no.":1,"Wolbachia per cell robust z, rep 1":0.786,"Wolbachia per cell robust z, rep 2":1.55,"Wolbachia per cell robust z, rep 3":0.532,"Outcome":"inactive"}

A stretch from the list above:
{"target":"SPARC (Secreted protein, acidic, cysteine-rich)","dsRNA no.":2,"Wolbachia per cell robust z, rep 1":-0.683,"Wolbachia per cell robust z, rep 2":0.0651,"Wolbachia per cell robust z, rep 3":0.244,"Outcome":"inactive"}
{"target":"SPARC (Secreted protein, acidic, cysteine-rich)","dsRNA no.":3,"Wolbachia per cell robust z, rep 1":-0.236,"Wolbachia per cell robust z, rep 2":-2.12,"Wolbachia per cell robust z, rep 3":0.0981,"Outcome":"inactive"}
{"target":"Nplp2 (Neuropeptide-like precursor 2)","dsRNA no.":1,"Wolbachia per cell robust z, rep 1":0.0474,"Wolbachia per cell robust z, rep 2":-0.463,"Wolbachia per cell robust z, rep 3":0.496,"Outcome":"inactive"}
